Legend:
[1] = tested on: P. falciparum female gametocytes; test: P. falciparum female gametogenesis assay (Pf FGAA)
[2] = tested on: P. falciparum late stage (stages IV-V) gametocytes; test: P. falciparum late stage gametocyte ATP depletion assay (Pf GC-ATP)
[3] = unified cytotox over Pf FGAA IC50, red: <10-fold selectivity, green: >10-fold
[4] = unified cytotox over Pf GC-ATP IC50, red: <10-fold selectivity, green: >10-fold
[5] = unified cytotox / IC50, <10-fold red, >10-fold green

Structure (SMILES): CCn1c(-c2nonc2N)nc2c(-c3cccc(NC(=O)Nc4cccc(Cl)c4)c3)ncc(OCCCN)c21.O=C(O)C(F)(F)F [TCMDC-136193]
- Assay tox ratio Pf FGAA [1, 3]: 40.34
- Assay tox ratio Pf GC-ATP [2, 4]: 21.91

Structure (SMILES): O=C(O)C(F)(F)F.O=S(=O)(NCCN1CCCC1)c1cccc(-c2ccc(CNC3Cc4ccccc4C3)cc2)c1 [TCMDC-132241]
- Assay tox ratio Pf FGAA [1, 3]: 2.33
- Assay tox ratio Pf GC-ATP [2, 4]: 3.36

Structure (SMILES): NCc1ccc(CNCc2cccc(-c3ccc(-c4nc5cc(C(F)(F)F)ccc5[nH]4)cc3)c2)cc1.O=C(O)C(F)(F)F [TCMDC-132811]
- Assay tox ratio Pf FGAA [1, 3]: 23.52
- Assay tox ratio Pf GC-ATP [2, 4]: 22.78

Structure (SMILES): CC(C)NCc1ccc(OCc2cccc(COc3ccc(CNC(C)C)cc3I)c2)c(I)c1.Cl [TCMDC-137259]
- Assay tox ratio Pf FGAA [1, 3]: 2.48
- Assay tox ratio Pf GC-ATP [2, 4]: 15.58

Structure (SMILES): CC(C)(C)c1ccc(CN2CCC(CNC(=O)c3cc(-c4ccccc4F)cs3)C2)cc1.O=C(O)C(F)(F)F (centres unmarked) [TCMDC-134443]
- Assay tox ratio Pf FGAA [1, 3]: 10.07
- Assay tox ratio Pf GC-ATP [2, 4]: 24.56

Structure (SMILES): COc1c(CCNCCCCNCCc2cc(Cl)c3ccccc3c2OC)cc(Cl)c2ccccc12.CS(=O)(=O)O [TCMDC-137869]
- Assay tox ratio Pf FGAA [1, 5]: 7.70
- Assay tox ratio Pf GC-ATP [2, 5]: 30.83

Structure (SMILES): COc1c(OC)c(OC)c2ccccc2c1CNCCCCCCNCc1c(OC)c(OC)c(OC)c2ccccc12.Cl [TCMDC-137827]
- Assay tox ratio Pf FGAA [1, 3]: 1.84
- Assay tox ratio Pf GC-ATP [2, 4]: 2.69

Structure (SMILES): CN(C)CCCOc1ccc(CN2CCC(c3c[nH]c4ccc(NCC5CCCCC5)cc34)CC2)cc1.O=C(O)C(F)(F)F [TCMDC-140737]
- Assay tox ratio Pf FGAA [1, 3]: 10.94
- Assay tox ratio Pf GC-ATP [2, 4]: 12.28

Structure (SMILES): CC(=O)N(Cc1ccc(CC(C)NCCc2cccc(Cl)c2)cc1)Cc1ccc(CC(C)NCCc2cccc(Cl)c2)cc1 (centres unmarked) [TCMDC-139678]
- Assay tox ratio Pf FGAA [1, 3]: 3.18
- Assay tox ratio Pf GC-ATP [2, 4]: 1.84

Structure (SMILES): C=CCN(C(=O)c1ccc(Cl)c([N+](=O)[O-])c1)c1nc(-c2ccccc2)cs1 [TCMDC-124436]
- Assay tox ratio Pf FGAA [1, 3]: 775.01
- Assay tox ratio Pf GC-ATP [2, 4]: 949.37

Structure (SMILES): COc1cc2c(cc1CCNCCCCNCCc1cc3c(cc1OC)CCCC3)CCCC2.CS(=O)(=O)O [TCMDC-137319]
- Assay tox ratio Pf FGAA [1, 3]: 2.10
- Assay tox ratio Pf GC-ATP [2, 4]: 22.19

Structure (SMILES): COc1cc2ccccc2c(CNCCCCCCNCc2c(OC)c(OC)cc3ccccc23)c1OC.CS(=O)(=O)O [TCMDC-137795]
- Assay tox ratio Pf FGAA [1, 3]: 7.01
- Assay tox ratio Pf GC-ATP [2, 4]: 4.46

Structure (SMILES): S=C(NN=Cc1ccccn1)NC1CC2C=CC1C2 (centres unmarked) [TCMDC-125752]
- Assay tox ratio Pf FGAA [1, 3]: 45.77
- Assay tox ratio Pf GC-ATP [2, 4]: 6.27

Structure (SMILES): COc1cc2nc(NCCCN3CCCCC3)nc(NCc3ccccc3)c2cc1OC [TCMDC-132012]
- Assay tox ratio Pf FGAA [1, 3]: 8.79
- Assay tox ratio Pf GC-ATP [2, 4]: 26.59

Structure (SMILES): Fc1ccc2[nH]c(-c3cccc(-c4ccc(CN5CCC(CCN6CCCCC6)CC5)cc4)c3)nc2c1.O=C(O)C(F)(F)F [TCMDC-133940]
- Assay tox ratio Pf FGAA [1, 3]: 2.65
- Assay tox ratio Pf GC-ATP [2, 4]: 11.52

Structure (SMILES): COc1cc2nc(N3CCC(CNCc4ccc(-c5ccc(C(F)(F)F)cc5)cc4)CC3)nc(N)c2cc1OC [TCMDC-138757]
- Assay tox ratio Pf FGAA [1, 3]: 14.62
- Assay tox ratio Pf GC-ATP [2, 4]: 80.89

Structure (SMILES): Nc1c(Cl)cc(C(O)CNCCCCCOCCCc2ccc(O)c3ncccc23)cc1Cl.O=C(O)/C=C/C(=O)O (centres unmarked) [TCMDC-132088]
- Assay tox ratio Pf FGAA [1, 3]: 2.92
- Assay tox ratio Pf GC-ATP [2, 4]: 13.49

Structure (SMILES): Cc1c(Cn2ncc(N3CCC(N)CC3)c(Cl)c2=O)cccc1NC(=O)Nc1ccc(-c2ccccc2)cc1.O=C(O)C(F)(F)F [TCMDC-141931]
- Assay tox ratio Pf FGAA [1, 3]: 17.13
- Assay tox ratio Pf GC-ATP [2, 4]: 15.92

Structure (SMILES): c1cc(C2=N[C@H]3CCCC[C@@H]3N2)ccc1OCCCOc1ccc(C2=N[C@@H]3CCCC[C@H]3N2)cc1 [TCMDC-137803]
- Assay tox ratio Pf FGAA [1, 3]: 3.31
- Assay tox ratio Pf GC-ATP [2, 4]: 81.47

Structure (SMILES): COc1cc2nc(N3CCC(CCCC4CCNCC4)CC3)nc(NCc3ccccn3)c2cc1OC.O=C(O)C(F)(F)F [TCMDC-138494]
- Assay tox ratio Pf FGAA [1, 3]: 2.12
- Assay tox ratio Pf GC-ATP [2, 4]: 36.37

Structure (SMILES): CN(C)CCNCc1cccc(-c2ccc3c(Nc4ccc(Oc5ccccn5)cc4)ccnc3c2)c1 [TCMDC-138493]
- Assay tox ratio Pf FGAA [1, 3]: 5.19
- Assay tox ratio Pf GC-ATP [2, 4]: 19.25

Structure (SMILES): CS(=O)(=O)O.FC(F)(F)COc1ccc(CCNCCCCNCCc2ccc(OCC(F)(F)F)c3ccccc23)c2ccccc12 [TCMDC-137282]
- Assay tox ratio Pf FGAA [1, 3]: 11.50
- Assay tox ratio Pf GC-ATP [2, 4]: 87.37

Structure (SMILES): COc1ccc(CNC2Cc3ccccc3C2)cc1-c1ccc(S(=O)(=O)NCCN2CCCC2)cc1.O=C(O)C(F)(F)F [TCMDC-132248]
- Assay tox ratio Pf FGAA [1, 3]: 3.55
- Assay tox ratio Pf GC-ATP [2, 4]: 5.15

Structure (SMILES): [O-][s+]1c(Cl)c(-c2ccc(Cl)cc2)c2ccc(Cl)cc21 (centres unmarked) [TCMDC-124011]
- Assay tox ratio Pf FGAA [1, 3]: 329.88
- Assay tox ratio Pf GC-ATP [2, 4]: 603.77

Structure (SMILES): CN(C)CCN(C)Cc1cccc(-c2ccc3c(Nc4ccc(F)cc4Cl)ccnc3c2)c1 [TCMDC-138416]
- Assay tox ratio Pf FGAA [1, 3]: 0.69
- Assay tox ratio Pf GC-ATP [2, 4]: 10.10

Structure (SMILES): CCC(CSC1CCCCC1)N(C)CCN(C)C(CC)CSC1CCCCC1.Cl (centres unmarked) [TCMDC-131456]
- Assay tox ratio Pf FGAA [1, 3]: 0.37
- Assay tox ratio Pf GC-ATP [2, 4]: 0.33

Structure (SMILES): COc1cccc(OC)c1CN1CCC(N(C)CCCCCCCCN2CCC(OC(=O)Nc3ccccc3-c3ccccc3)CC2)CC1 [TCMDC-134684]
- Assay tox ratio Pf FGAA [1, 3]: 1.18
- Assay tox ratio Pf GC-ATP [2, 4]: 2.57

Structure (SMILES): Cl.Nc1c(I)cc(C(=O)Nc2ccc3nc4c(c(N)c3c2)CCCC4)cc1I [TCMDC-142289]
- Assay tox ratio Pf FGAA [1, 3]: 8.09
- Assay tox ratio Pf GC-ATP [2, 4]: 15.30

Structure (SMILES): CC(C)(C)c1ccc(-c2nc3c(ccc4nc(N)nc(N)c43)[nH]2)cc1.Cl [TCMDC-137984]
- Assay tox ratio Pf FGAA [1, 3]: 11.58
- Assay tox ratio Pf GC-ATP [2, 4]: 14.55

Structure (SMILES): COc1c(C2CCN(CCN3CCC(CNC(=O)c4ccc(-c5ccc(C#N)cc5)cc4)CC3)CC2)ccc2c1CCCC2 [TCMDC-138859]
- Assay tox ratio Pf FGAA [1, 3]: 2.30
- Assay tox ratio Pf GC-ATP [2, 4]: 2.89

Structure (SMILES): CN1CCN(CCCNCc2cccc(-c3ccc(CNCCc4ccccc4)cc3)c2)CC1 [TCMDC-140643]
- Assay tox ratio Pf FGAA [1, 3]: 6.85
- Assay tox ratio Pf GC-ATP [2, 4]: 31.65

Structure (SMILES): c1cc(Nc2nc(-c3ccc(-c4csc(Nc5ccncc5)n4)cc3)cs2)ccn1 [TCMDC-139725]
- Assay tox ratio Pf FGAA [1, 3]: 336.68
- Assay tox ratio Pf GC-ATP [2, 4]: 37.62

Structure (SMILES): COc1ccc2c(c1)CC(C)(C)NC2CCCCCCCCC1NC(C)(C)Cc2cc(OC)ccc21.O=C(O)C(=O)O (centres unmarked) [TCMDC-137935]
- Assay tox ratio Pf FGAA [1, 3]: 3.72
- Assay tox ratio Pf GC-ATP [2, 4]: 6.93

Structure (SMILES): COc1ccc(CCNCCCCCCNCCc2ccc(Cl)c3ccccc23)cc1OC.Cl [TCMDC-131270]
- Assay tox ratio Pf FGAA [1, 3]: 4.63
- Assay tox ratio Pf GC-ATP [2, 4]: 21.12

Structure (SMILES): N=C(NCC1CC1c1ccccc1)c1cccc(C(=N)NCC2CC2c2ccccc2)n1 (centres unmarked) [TCMDC-137456]
- Assay tox ratio Pf FGAA [1, 3]: 3.44
- Assay tox ratio Pf GC-ATP [2, 4]: 14.45

Structure (SMILES): SC(=Nc1ccc(Cl)c(Cl)c1)NN=Cc1ccccn1 [TCMDC-125522]
- Assay tox ratio Pf FGAA [1, 3]: 75.56
- Assay tox ratio Pf GC-ATP [2, 4]: 89.77

Structure (SMILES): CC(C)(C)c1ccc(CN2CCC(CNC(=O)c3cc(-c4cccc(Cl)c4)cs3)C2)cc1.O=C(O)C(F)(F)F (centres unmarked) [TCMDC-134446]
- Assay tox ratio Pf FGAA [1, 3]: 9.47
- Assay tox ratio Pf GC-ATP [2, 4]: 15.47

Structure (SMILES): Cl.Clc1ccc(OCCC2CCN(CCCCCCCN3CCC(CCOc4ccc(Cl)c(Cl)c4)CC3)CC2)cc1Cl [TCMDC-138967]
- Assay tox ratio Pf FGAA [1, 3]: 4.09
- Assay tox ratio Pf GC-ATP [2, 4]: 4.56

Structure (SMILES): FC(F)(F)c1ccc2[nH]c(-c3cccc(-c4ccc(CNCCN5CCNCC5)cc4)c3)nc2c1.O=C(O)C(F)(F)F [TCMDC-132872]
- Assay tox ratio Pf FGAA [1, 3]: 5.99
- Assay tox ratio Pf GC-ATP [2, 4]: 12.46

Structure (SMILES): COc1ccc(-c2cnc3[nH]cc(-c4ccncc4)c3c2)cc1OC [TCMDC-135853]
- Assay tox ratio Pf FGAA [1, 3]: 3.29
- Assay tox ratio Pf GC-ATP [2, 4]: 8.30

Structure (SMILES): CN1CCN(CCCNCc2cccc(Nc3nccc(Nc4ccc(Oc5ccccc5)cc4)n3)c2)CC1 [TCMDC-138616]
- Assay tox ratio Pf FGAA [1, 3]: 5.02
- Assay tox ratio Pf GC-ATP [2, 4]: 15.39

Structure (SMILES): C[C@H](Cc1ccc(CCc2ccc(C[C@@H](C)NC[C@H](O)c3cccc(Cl)c3)cc2)cc1)NC[C@H](O)c1cccc(Cl)c1.Cl [TCMDC-131551]
- Assay tox ratio Pf FGAA [1, 3]: 1.80
- Assay tox ratio Pf GC-ATP [2, 4]: 13.81

Structure (SMILES): CC(Cc1ccc(C(=O)Nc2ccc(CC(C)NCCc3cccc(Cl)c3)cc2)cc1)NCCc1ccc(C(F)(F)F)cc1 (centres unmarked) [TCMDC-139790]
- Assay tox ratio Pf FGAA [1, 3]: 3.69
- Assay tox ratio Pf GC-ATP [2, 4]: 12.11

Structure (SMILES): Cl.c1ccc2c(Nc3ccc(Cc4ccc(Nc5c6ccccc6nc6ccccc56)cc4)cc3)c3ccccc3nc2c1 [TCMDC-137354]
- Assay tox ratio Pf FGAA [1, 3]: 4.00
- Assay tox ratio Pf GC-ATP [2, 4]: 1.81

Structure (SMILES): CC(CNC(=N)c1cccc(C(=N)NCC(C)Oc2cccc(C3CCCCC3)c2)n1)Oc1cccc(C2CCCCC2)c1.Cl (centres unmarked) [TCMDC-137455]
- Assay tox ratio Pf FGAA [1, 3]: 2.24
- Assay tox ratio Pf GC-ATP [2, 4]: 11.86

Structure (SMILES): CNCCNc1nccc(N2CCc3ncnc(Nc4ccc(OCc5cccc(F)c5)c(Cl)c4)c3C2)n1 [TCMDC-135478]
- Assay tox ratio Pf FGAA [1, 3]: 3.82
- Assay tox ratio Pf GC-ATP [2, 4]: 9.61
